Measurements published in patent publication US20220403009A1 (IGM BIOSCIENCES, published 2022).

Biological target: SARS-CoV-2 RBD variant printed 'G446V' a second time (Table 10, row 15)

B1: Ab4 IgM (antibody)
VH: QVQLVESGGGVVQPGRSLRLSCAASGFTFSNYAMYWVRQAPGKGLEWVAVISYDGSNKYYADSVKGRFTISRDNSKNTLYLQMNSLRTEDTAVYYCASGSDYGDYLLVYWGQGTLVTVSS
VL: QSALTQPASVSGSPGQSITISCTGTSSDVGGYNYVSWYQQHPGKAPKLMIYDVSKRPSGVSNRFSGSKSGNTASLTISGLQSEDEADYYCNSLTSISTWVFGGGTKLTVL
chain: not shown
Kd: 2.3 nM
